{"source": "patent US8609087B2", "about": "“Compounds and methods for identifying compounds which inhibit a new class of aspartyl proteases” (priority 1999, dated 2013)", "target": "TcpJ type 4 prepilin peptidase (TFPP) (Vibrio cholerae serotype O1, UniProt A5F385, P151Q/Q149P/S169T)", "test": "biochemical", "type": "biochemical", "data": [{"compound": "O=C([O-])Cc1ccccc1Nc1c(Cl)cccc1Cl.[Na+]", "note": "[Voltaren]", "values": [{"measurement": "IC50", "value": "~110", "unit": "µM"}, {"measurement": "IC50 range (in words)", "value": "micromolar range"}]}]}
